Results of unrelated studies side by side (data: NIAID ChemDB).

Shared fields: growth or infection tests; species: Hepatitis C virus; read-out: EC50

ECn: concentration that inhibits the pathogen or its effect by n%. Neighbouring rows are from separate reports. Two numbers with a dash give a range or band. An empty or dashed field is not shown.

compound,cells,read by,strain or isolate,changes,result
N#Cc1c(NCC2CCCCC2)s[nH]c1=O,Huh7,replicon,,,1–10 µM
CCOc1nc(NCc2ccc(F)cc2F)nc2ccc(-c3ccc(C(=O)NC4CC4)cc3)nc12,,replicon,,,<0.1 µM
COC(=O)OC(C1COC(=O)O1)C1NC(=S)NC(C)=C1C(=O)OCCc1cccc(Cl)c1,Huh7,ELISA,,,<1 µM
COc1ccc(-c2nc(NC(=O)[C@@H](C)c3ccc(Cl)cc3)[nH]c2C)cc1S(=O)(=O)CCO,Huh7,luciferase,1b,,0.027 µM
O=C(Cc1cc(F)ccc1F)N/N=C/c1ccccc1OS(=O)(=O)c1ccc(C(F)(F)F)cc1,Huh7,replicon,,,<5 µM
C=CC[C@](C)(NC(=O)[C@H]1C[C@@H](Oc2ccc3c(Cl)nccc3c2SCCC)CN1C(=O)[C@@H](NC(=O)OC(C)(C)C)C(C)(C)C)C(=O)NS(=O)(=O)C1CC1,Huh7,replicon,BMS,,0.1–1 µM
COC(=O)OC(c1oc(=O)oc1C)C1NC(=S)NC(C)=C1C(=O)OCCc1cccc(Cl)c1,Huh7,ELISA,,,<1 µM
CC1(C)CC(=O)C2=C(C1)Nc1c(O)cccc1N(C(=O)CCC(=O)NCc1ccco1)C2c1ccc(OCc2ccccc2)cc1Cl,,luciferase / reporter gene / replicon,1b,,6.75 µM
C=C[C@H]1C[C@@]1(NC(=O)[C@@H]1C[C@@H](Oc2nccc3cc(OC)ccc23)CN1C(=O)[C@@H](NC(=O)OC(C)C)C(C)(C)C)C(=O)NS(=O)(=O)C1CC1,Huh7,replicon,BMS,,0.1–1 µM
CC1=C(C(=O)OCc2cc3c(C)nn(C)c3s2)CNC(=S)N1,Huh7,ELISA,,,>20 µM
COc1cccc(CC(=O)N/N=C/c2ccccc2OS(=O)(=O)c2ccc(N3CCOCC3)nc2)c1,Huh7,replicon,,,5–50 µM
NC(=O)COc1ccc2c(c1)S(=O)(=O)N=C(c1c(O)c3cc(F)ccc3n(CCC3CC3)c1=O)N2,,replicon,1a 5904,,0.5 µM
N#Cc1c(Nc2ccc(Cl)cn2)s[nH]c1=O,Huh7,replicon,,,10–50 µM
CCCCCCCCCCCCCCCCCCOCCOP(=O)(O)CO[C@H](COC)Cn1cnc2c(N)ncnc21,,,WILD TYPE,,4.41 µM
O=C(Cc1ccccc1)N/N=C/c1ccccc1OS(=O)(=O)c1ccccc1Br,Huh7,replicon,,,>50 µM
COCCOc1nc(N)nc2ccc(-c3ccc(C(=O)NC4CC4)cc3)nc12,Huh7,replicon,,,<0.3 µM
Brc1ccc(Cn2cc3nc(-c4ccccc4)nc-3c(Br)c2)cc1,Huh 5-2,replicon,,,<0.62 µg/mL
O=C(OCc1ccc(Cl)cc1)c1cn(Cc2ccc(Cl)cc2)c2cc(N3CCOCC3)c(F)cc2c1=O,,replicon,,,1.2 µM
N#Cc1c(Nc2ccccc2C(F)(F)F)s[nH]c1=O,Huh7,replicon,,,10–50 µM
CC(=O)N1c2cccc(O)c2NC2=C(C(=O)CC(C)(C)C2)[C@@H]1c1ccc(OCc2ccccc2)c(Cl)c1,,luciferase / reporter gene / replicon,1b,,0.9 µM
N#Cc1c(C(=O)Nc2ccccc2)nn(-c2ccccc2)c1-n1cccc1,Huh 5-2,luciferase / replicon,Con1 (gt 1b),,39.6 µM
Brc1ccc(Cn2ccc3nc(-c4ccccn4)nc-3c2)cc1,Huh 5-2,replicon,,,0.2 µg/mL
Nc1ncc(-c2ccc3nc(NCc4ccc(S(N)(=O)=O)cc4)nc(NC4CC4)c3n2)s1,,replicon,,,<0.1 µM
COC(=O)N[C@H](C(=O)N1CCC[C@H]1c1ncc(-c2ccc3c(c2)Cc2ccc(-c4cnc([C@@H]5CCCN5C(=O)[C@@H](NC(=O)OC)C(C)C)[nH]4)cc2O3)[nH]1)C(C)C,Huh7,luciferase / replicon,GT3a,,0.0013 µM
O=C(Nc1ccccc1)c1cc(-n2cccc2)n(-c2ccc(Cl)cc2)n1,Huh 5-2,luciferase / replicon,Con1 (gt 1b),,26.9 µM
NS(=O)(=O)c1ccc(CNc2nc(NCC(F)(F)F)c3nc(-c4ccc(Cl)c(S(=O)(=O)NCCN5CCCC5)c4)ccc3n2)cc1,,replicon,,,<0.1 µM
C=C[C@@H]1C[C@]1(NC(=O)[C@@H]1C[C@@H](Oc2cc(-n3cccn3)cc3ccncc23)CN1C(=O)[C@@H](NC(=O)OC(C)(C)C)C(C)(C)C)C(=O)NS(=O)(=O)C1CC1,Huh7,replicon,BMS,,0.1–1 µM
CN(c1ccccc1/C=N/NC(=O)Cc1cnc[nH]1)S(=O)(=O)c1ccc(C(F)(F)F)cc1,Huh7,replicon,,,<5 µM
O=C(N[C@@H](C(=O)N1CCC[C@H]1c1ncc(-c2ccc(-c3ccc(-c4cnc([C@@H]5CCCN5C(=O)[C@H](NC(=O)C5CC5)c5ccccc5)s4)cc3)cc2)s1)c1ccccc1)C1CC1,Huh7.5,luciferase / reporter gene,genotype 2a,P58L,0.053 µM
N#Cc1c(Nc2ccccc2)s[nH]c1=O,Huh7,replicon,,,1–10 µM
O=C(O)/C=C/c1ccc(NC(=O)C2(NC(=O)c3ccc4c(c3)nc(-c3ccoc3)n4C3CCCCC3)CCCCC2)cc1,,,,,1 µM
CCC[C@H](NC(=O)[C@@H]1[C@@H](C(C)C)CCN1C(=O)[C@H](NC(=O)[C@H](NC(=O)c1cnccn1)C1CCCCC1)C(C)(C)C)C(=O)C(=O)NC1CC1,,,Hepatitis C virus,,0.91 µM
O=C(Nc1ccc(Cl)cc1)c1cc(-n2cccc2)n(-c2ccccc2)n1,Huh 5-2,luciferase / replicon,Con1 (gt 1b),,5.9 µM
CCCCCCCCCCCCCCCC(=O)Nc1ccn([C@H]2CC[C@@H](COP(=O)(O)O[C@H]3C[C@H](n4cc(F)c(=O)[nH]c4=O)O[C@@H]3CO)O2)c(=O)n1,Huh7,replicon,P114/ET (WILD TYPE),,0.001 µM
COC(=O)N[C@H](C(=O)N1CC2(CC2)C[C@H]1c1ncc(-c2ccc3c(c2)C(F)(F)c2cc(-c4ccc5nc([C@@H]6[C@H]7CC[C@H](C7)N6C(=O)[C@@H](NC(=O)OC)C(C)C)[nH]c5c4)ccc2-3)[nH]1)C(C)C,HCV replicon,replicon,Genotype 4a,,0.00011 µM
CCC[C@H](NC(=O)[C@@H]1[C@@H](C(C)(C)C)CCN1C(=O)[C@H](NC(=O)[C@H](NC(=O)c1cnccn1)C1CCCCC1)C(C)(C)C)C(=O)C(=O)NC1CC1,,,Hepatitis C virus,,>3 µM
C=C[C@@H]1C[C@]1(NC(=O)[C@@H]1C[C@@H](Oc2nccc3cc(OC)ccc23)CN1C(=O)[C@@H](NC(=O)OC(C)(C)C)C(C)(C)C)C(=O)NS(=O)(=O)C1CCC1,Huh7,replicon,BMS,,<0.1 µM
Cc1[nH]c(NC(=O)C(C)c2ccccc2)nc1-c1ccc(C(=O)O)c(S(C)(=O)=O)c1,Huh7,luciferase,1a,,>10 µM
CCC1(C)CC(=O)C2=C(C1)Nc1c(O)cccc1N(C(=O)C(C)C)C2c1ccc(OCc2ccccc2)cc1F,,luciferase / reporter gene / replicon,1b,,1.26 µM
Ic1ccc(Cn2ccc3nc(-c4ccccc4)nc-3c2)cc1,Huh 5-2,replicon,,,<0.62 µg/mL
CC1=C(C(=O)OCCSc2nc3ccccc3s2)CNC(=S)N1,Huh7,ELISA,,,1–10 µM
N=C(N)c1ncn([C@@H]2O[C@H](CO)[C@@H](O)[C@H]2O)n1,,,,,1–100 µM
CCC[C@H](NC(=O)[C@@H]1[C@@H](C2CCCCC2)CCN1C(=O)[C@H](NC(=O)[C@H](NC(=O)c1cnccn1)C1CCCCC1)C(C)(C)C)C(=O)C(=O)NC1CC1,,,Hepatitis C virus,,0.76 µM
C=CC[C@](C)(NC(=O)[C@H]1C[C@@H](Oc2nc(Br)c(OCOCC[Si](C)(C)C)c3ccccc23)CN1C(=O)[C@@H](NC(=O)OC(C)(C)C)C(C)(C)C)C(=O)NS(=O)(=O)C1CC1,Huh7,replicon,BMS,,0.1–1 µM
COc1ccc2c(c1)[C@@H]1C[C@]1(C(=O)N1C3CCC1CN(C)C3)Cn1c-2c(C2CCCCC2)c2ccc(C(=O)N(C)S(=O)(=O)N(C)C)cc21,,replicon,1b,,0.001–0.5 µM
CNC(=O)c1ccc(-c2ccc3nc(N)nc(OC(C)C)c3n2)cc1Cl,Huh7,replicon,,,>1 µM
O=C(CC12CC3CC(CC(C3)C1)C2)N/N=C/c1ccccc1OS(=O)(=O)c1ccc(C(F)(F)F)cc1,Huh7,replicon,,,>50 µM
Cc1c(C(=O)Nc2ccccc2)nn(-c2ccccc2)c1-n1cccc1,Huh 5-2,luciferase / replicon,Con1 (gt 1b),,6.7 µM
C=CC[C@](C)(NC(=O)[C@H]1C[C@@H](Oc2nc3c(c4ccccc24)CCC3)CN1C(=O)[C@@H](NC(=O)OC(C)(C)C)C(C)(C)C)C(=O)NS(=O)(=O)C1CC1,Huh7,replicon,BMS,,<0.1 µM
COc1ccc2c(c1)C1CC1(C(=O)N1[C@@H]3C[C@H]1CN(C(=O)OCc1ccccc1)C3)Cn1c-2c(C2CCCCC2)c2ccc(C(=O)NS(=O)(=O)N(C)C)cc21,,replicon,1b,,0.001–0.5 µM
CCOc1nc(NCc2ccc(S(N)(=O)=O)cc2)nc2ccc(-c3ccc(NOC(C)(C)N)cc3)nc12,,replicon,,,<0.1 µM
O=C(N/N=C/c1ccccc1OS(=O)(=O)c1ccc(C(F)(F)F)cc1)C1CCN(Cc2ccccc2)C1=O,Huh7,replicon,,,>50 µM
COc1ccc2c(c1)[C@@H]1C[C@]1(C(=O)N1[C@@H]3C[C@H]1CN(C(=O)N(C)C)C3)Cn1c-2c(C2CCCCC2)c2ccc(C(=O)NS(=O)(=O)N(C)C)cc21,,replicon,1b,,0.001–0.5 µM
Cc1ccc(Nc2nc(NC(C)C)c3nc(-c4ccc(F)cc4)ccc3n2)nn1,,replicon,,,0.25–2 µM
C[C@@]1(F)[C@H](O)[C@@H](CO)O[C@@]1(CN)n1ccc(=O)[nH]c1=O,Huh7,replicon,1b,,>89 µM
C[C@H](N)C(=O)Nc1ccc(-c2ccc3nc(NCc4ccc(S(N)(=O)=O)cc4)nc(NCC(F)(F)F)c3n2)cc1Cl,,replicon,,,<0.1 µM
CC1(C)CC(=O)C2=C(C1)Nc1c(O)cccc1N(C(=O)CCC(N)=O)C2c1ccc(OCc2ccccc2)cc1Cl,,luciferase / reporter gene / replicon,1b,,6.78 µM
COc1ccc2c(c1)[C@@H]1C[C@]1(C(=O)N1[C@@H]3C[C@H]1CN(S(C)(=O)=O)C3)Cn1c-2c(C2CCCCC2)c2ccc(C(=O)NS(=O)(=O)N(C)C)cc21,,replicon,1b,,0.001–0.5 µM
O=C(Cc1ccncc1)N/N=C/c1ccccc1OS(=O)(=O)c1ccc(C(F)(F)F)cc1,Huh7,replicon,,,5–50 µM
Cc1[nH]c(NC(=O)C(C)c2ccccc2)nc1-c1ccc(Cl)cc1,Huh7,luciferase,1b,,>10 µM
COc1cccc(CC(=O)N/N=C/c2cccnc2OS(=O)(=O)c2ccc(C)cc2)c1,Huh7,replicon,,,5–50 µM
O=C(Nc1ccc(-c2ccc3nc(NCc4ccc(F)cc4)nc(NCC(F)(F)F)c3n2)cc1)C1(O)CC1,,replicon,,,<0.1 µM
CC1(C)CC(=O)C2=C(C1)Nc1c(O)cccc1N(C(=O)COc1ccc(Cl)cc1)C2c1ccc(OCc2ccccc2)cc1F,,luciferase / reporter gene / replicon,1b,,1.72 µM
CNS(=O)(=O)NC(=O)c1ccc2c(C3CCCCC3)c3n(c2c1)CC1(C(=O)N2[C@@H]4C[C@H]2CN(C)C4)CC1c1cc(OC)ccc1-3,,replicon,1b,,0.001–0.5 µM

A second listing of 6 rows from above:

compound,cells,read by,strain or isolate,changes,result
C=C[C@@H]1C[C@]1(NC(=O)[C@@H]1C[C@@H](Oc2nccc3cc(OC)ccc23)CN1C(=O)[C@@H](NC(=O)OC(C)(C)C)C(C)(C)C)C(=O)NS(=O)(=O)C1CCC1,Huh7,replicon,BMS,,<0.1 µM
COc1ccc(-c2nc(NC(=O)[C@@H](C)c3ccc(Cl)cc3)[nH]c2C)cc1S(=O)(=O)CCO,Huh7,luciferase,1b,,0.027 µM
O=C(Nc1ccccc1)c1cc(-n2cccc2)n(-c2ccc(Cl)cc2)n1,Huh 5-2,luciferase / replicon,Con1 (gt 1b),,26.9 µM
CCCCCCCCCCCCCCCC(=O)Nc1ccn([C@H]2CC[C@@H](COP(=O)(O)O[C@H]3C[C@H](n4cc(F)c(=O)[nH]c4=O)O[C@@H]3CO)O2)c(=O)n1,Huh7,replicon,P114/ET (WILD TYPE),,0.001 µM
NS(=O)(=O)c1ccc(CNc2nc(NCC(F)(F)F)c3nc(-c4ccc(Cl)c(S(=O)(=O)NCCN5CCCC5)c4)ccc3n2)cc1,,replicon,,,<0.1 µM
O=C(N[C@@H](C(=O)N1CCC[C@H]1c1ncc(-c2ccc(-c3ccc(-c4cnc([C@@H]5CCCN5C(=O)[C@H](NC(=O)C5CC5)c5ccccc5)s4)cc3)cc2)s1)c1ccccc1)C1CC1,Huh7.5,luciferase / reporter gene,genotype 2a,P58L,0.053 µM